Pooled drug test results. Numbers come from NIAID ChemDB, via PubChem.

Shared fields: whole-cell or culture tests; species: HIV-1; measure: EC50

Rows are shuffled and stem from different studies. a–b is a range or a potency band. Blank or dashed fields: not listed here. ECn is the concentration giving n% inhibition of infection, replication or growth.

structure,strain,mutations,read by,conditions,cell line,result
C#Cc1ccc(Nc2nccc(Oc3c(C)cc(-c4cn(Cc5ccc(C(=O)OC)cc5)nn4)cc3C)n2)cc1,IIIB,F227L and V106A,MTT,,MT-4,≥9.22 µM
CC(=O)N1Cc2ccccc2-c2c(C)c(-c3ccc(C)cc3)c([C@H](OC(C)(C)C)C(=O)O)c(C)c21,,T174I,MTT,,MT-4,0.81 µM
C/C1=C/CC/C(C)=C2/C[C@@]3(C)CC[C@@](O)(C(C)C)[C@@H]3C2C1=O,,,luciferase,pseudotyped,293T,>30 µM
Cc1cc(C)cc(S(=O)(=O)c2c(C(N)=O)[nH]c3ccc(Cl)cc23)c1,IIIB,,p24,,C8166,<0.006 µM
Nc1ccn([C@H]2CC[C@@H](CO)O2)c(=O)n1,,Y181C,MTT,,MT-4,0.331 µM
CC1(C)[C@@H](O[C@H]2O[C@H](C(=O)O)[C@@H](O)[C@H](O)[C@H]2O[C@@H]2O[C@H](C(=O)O)[C@@H](O)[C@H](O)[C@H]2O)CC[C@]2(C)[C@H]3C(=O)C=C4[C@@H]5C[C@@](C)(C(=O)O)CC[C@]5(C)CC[C@@]4(C)[C@]3(C)CC[C@@H]12,IIIB,,antigen,,MT-4,<300 µM
Nc1nc(=O)n([C@@H]2O[C@@H](CO)CC2(F)F)cc1I,LAV,,,,PBMC,>100 µM
CCOCn1c(C(=O)c2cccc(C#N)c2)c(CC)c(OC)nc1=O,IIIB,,MTT,,MT-4,10 µM
O=C1c2ccccc2C(=O)N1C/C=C/Cn1ccc(=O)[nH]c1=O,,,syncytia,,CEM,>100 µM
C=CCOCn1c(C(F)c2cccc(C#N)c2)c(CC)c(=O)[nH]c1=O,IIIB,Y181C,MTT,,MT-4,1.5 µM
O=c1ccn([C@H]2O[C@@H](CO)CC2(F)F)c(=O)[nH]1,LAV,,,,PBMC,>100 µM
CC(C)=CCC[C@@H](C)[C@@H]1CCC(C)=CC[C@H](O)/C(C)=C/[C@@H]1O,,,luciferase,pseudotyped,293T,>30 µM
CC(C)CN(C[C@@H](O)[C@H](Cc1ccccc1)NC(=O)O[C@H]1CO[C@H]2OCC[C@H]21)S(=O)(=O)c1ccc2onc(CNC(C)C)c2c1,HXB2 Recombinant,,cytopathic effect / MTT,,MT-4,0.0032 µM
Cc1cc(C#N)cc(C(=O)c2ccccc2OCC(=O)Nc2ccc(S(N)(=O)=O)cc2C)c1,,RT-K103N P225H,β-galactosidase,,HeLa MAGI + HeLa,<0.005 µM
CC(=O)O[C@H]1[C@H]2C(C)=CC=C[C@@]2(C)C(=O)C[C@@H]2[C@]1(C)CC[C@@]2(O)C(C)C,,,luciferase,pseudotyped,293T,>30 µM
O=c1[nH]cnc2c1ncn2[C@H]1O[C@@H](CO)CC1(F)F,LAV,,,,PBMC,>100 µM
C#Cc1ccc(Nc2nccc(Oc3c(C)cc(-c4cn(CCc5cccs5)nn4)cc3C)n2)cc1,IIIB,,MTT,,MT-4,0.135 µM
Nc1ncnc2c1ncn2C/C=C\CN1C(=O)c2ccccc2C1=O,,,syncytia,,CEM,>100 µM
NNC(=O)c1[nH]c2ccc(Cl)cc2c1S(=O)(=O)c1ccccc1,EFV-resistant (RT K103R V179D P225H),,p24,,C8166,<3 µM
CCCOCn1c(C(F)c2cccc(C#N)c2)c(CC)c(=O)[nH]c1=O,IIIB,,MTT,,MT-4,0.07 µM
NC/C=C/Cn1ccc(=O)[nH]c1=O,,,syncytia,,CEM,>100 µM
COc1cc(O)c(CC=C(C)C)c(O)c1C(=O)/C=C/c1ccc(O)cc1,IIIB,,p24,,H9,<121.8 µM
CC(/C=C/C=C\C=C\C=C(/C)C(=O)NC(C)CO)=C\C(C)C(O)/C(C)=C/C(C)CCc1ccccc1,IIIB,,cytopathic effect / thymidine uptake,,MT-4,<0.00102 µM
Cc1nn(COC(CO)CN=[N+]=[N-])c(=O)[nH]c1=O,,,p24,,MT-4,>1000 µM
C=C1CC[C@@H](O)[C@@]2(C)CCC3=C(C(C)C)[C@@H](OC(C)=O)C[C@]3(C)C[C@]12O,,,luciferase,pseudotyped,293T,>30 µM
Cc1cc(C)cc(S(=O)(=O)c2c(C(=O)NCC(=O)NC(C)C(=O)NN)[nH]c3ccc(Cl)cc23)c1,IIIB,,p24,,C8166,<0.12 µM
Cc1cn(COC(CO)CN=[N+]=[N-])c(=O)[nH]c1=O,,,p24,,MT-4,>1000 µM
O=c1[nH]c(=O)n([C@H]2O[C@@H](CO)CC2(F)F)cc1F,LAV,,,,PBMC,>100 µM
CCC(C)Nc1n[nH]c2ccc(S(=O)(=O)N(CC(C)C)C[C@@H](O)[C@H](Cc3ccccc3)NC(=O)O[C@H]3CO[C@H]4OCC[C@H]43)cc12,HXB2 Recombinant,,cytopathic effect / MTT,,MT-4,0.01 µM
NC(=O)c1[nH]c2ccc(Cl)cc2c1S(=O)(=O)c1ccccc1,EFV-resistant (RT K103R V179D P225H),,p24,,C8166,<0.9 µM
O=C1c2ccccc2C(=O)N1CC1OC1CCl,,,syncytia,,CEM,>100 µM
Cc1ccc(-c2c(C)c3c(c(C)c2[C@H](OC(C)(C)C)C(=O)O)N(S(C)(=O)=O)Cc2cc(C(F)(F)F)ccc2-3)cc1,,T174I,MTT,,MT-4,0.0073 µM
[N-]=[N+]=NC[C@@H](CO)OCn1nc(-c2ccccc2)c(=O)[nH]c1=O,,,p24,,MT-4,>1000 µM
CC(=O)[C@H]1/C=C(\C)CC/C=C(\C)C(=O)C[C@@H]2[C@]1(C)CC[C@@]2(O)C(C)C,,,luciferase,pseudotyped,293T,>30 µM
Nc1nc(=O)n([C@H]2CC[C@@H](CO)O2)cc1F,RF,,MTT,,MT-4,0.175 µM
CC(C)=CCC[C@@H](C)[C@@H]1[C@H](O)C/C(C)=C/C/C=C(/CO)[C@H]1CO,,,luciferase,pseudotyped,293T,>30 µM
Nc1ccn([C@H]2CC[C@H](CO)O2)c(=O)n1,RF,,MTT,,MT-4,>473 µM
CCOc1cc(-c2nccc3cc(OC)c(OC)cc23)cc(OCC)c1OCC,,,p24,,MT-2,5 µM
CCCc1cc(=O)oc2c3c(c4c(c12)OC(C)(C)CC4)O[C@@H](C)[C@H](C)[C@@H]3O,IIIB,,RT activity,,U-937,0.8 µM
Nc1ccn([C@@H]2CC[C@H](CO)O2)c(=O)n1,RF,,MTT,,MT-4,0.094–2.84 µM

5 of the rows above, restated:

| structure | strain | mutations | read by | conditions | cell line | result |
|---|---|---|---|---|---|---|
| CC(C)=CCC[C@@H](C)[C@@H]1[C@H](O)C/C(C)=C/C/C=C(/CO)[C@H]1CO |  |  | luciferase | pseudotyped | 293T | >30 µM |
| O=c1[nH]c(=O)n([C@H]2O[C@@H](CO)CC2(F)F)cc1F | LAV |  |  |  | PBMC | >100 µM |
| Nc1ncnc2c1ncn2C/C=C\CN1C(=O)c2ccccc2C1=O |  |  | syncytia |  | CEM | >100 µM |
| CC1(C)[C@@H](O[C@H]2O[C@H](C(=O)O)[C@@H](O)[C@H](O)[C@H]2O[C@@H]2O[C@H](C(=O)O)[C@@H](O)[C@H](O)[C@H]2O)CC[C@]2(C)[C@H]3C(=O)C=C4[C@@H]5C[C@@](C)(C(=O)O)CC[C@]5(C)CC[C@@]4(C)[C@]3(C)CC[C@@H]12 | IIIB |  | antigen |  | MT-4 | <300 µM |
| CC(/C=C/C=C\C=C\C=C(/C)C(=O)NC(C)CO)=C\C(C)C(O)/C(C)=C/C(C)CCc1ccccc1 | IIIB |  | cytopathic effect / thymidine uptake |  | MT-4 | <0.00102 µM |